Compound potency records, mixed from different reports. Data source: NIAID ChemDB in PubChem.

Shared fields: growth or infection tests; organism: HIV-1

Blank or dashed fields: not listed here. ECn is the concentration giving n% inhibition of infection, replication or growth. Conditions beyond the fields shown may differ between rows.

Cc1cc(C)cc(S(=O)(=O)c2c(C(N)=O)[nH]c3ccc(Cl)cc23)c1 ; method: MTT ; strain: IIIB ; measure: EC50 ; cells: MT-4 ; value: 0.006 µM
CC(C)[C@H](NC(=O)[C@H](Cc1ccccc1)C[C@H](O)[C@H](Cc1ccccc1)NC(=O)OC(C)(C)C)C(=O)N[C@@H](Cc1ccccc1)C(=O)N1CCOCC1 ; method: RT activity ; strain: LAV ; measure: EC50 ; cells: PBMC ; value: 0.033 µM
Cc1ccnc2c1NC(=O)c1cccnc1N2C1CC1 ; measure: EC50 ; cells: MT-4 ; mutations: RT-D67N K70R T215Y K219Q K103N ; value: >3 µM
O=c1ccn([C@H]2CC[C@@H](CO)O2)c(=O)[nH]1 ; method: cytopathic effect / trypan blue ; strain: IIIB ; measure: EC50 ; cells: MT-4 ; value: <625 µM
Cc1cc(-c2ccc(C#N)cc2)cc(C)c1Oc1nc(Nc2ccc(C#N)cc2)nc2ccsc12 ; method: MTT ; strain: IIIB ; measure: EC50 ; cells: MT-4 ; mutations: F227L V106A ; value: 0.02536 µM
Cc1cn([C@H]2C[C@H](N=[N+]=[N-])[C@@H](COC(=O)CNNC(=O)c3ccncc3)O2)c(=O)[nH]c1=O ; method: cytopathic effect / XTT ; measure: EC50 ; cells: CEM ; value: <0.064 µM
Cc1cn([C@H]2C[C@H](N=[N+]=[N-])[C@@H](CO)O2)c(=O)[nH]c1=O ; method: luciferase ; strain: NL4-3 ; measure: EC50 ; cells: TZM-bl ; value: 0.004 µg/mL
O=S1(=O)N=C(Nc2ccc(F)c(F)c2F)C=C(Cc2ccc3ccccc3c2)N1 ; method: MTT ; strain: IIIB ; measure: EC50 ; cells: MT-4 ; value: >143 µM
NC(=O)c1nn([C@@H]2O[C@H](CO)[C@@H](O)[C@H]2O)cc1I ; method: syncytia ; strain: IIIB ; measure: EC50 ; cells: C8166 ; value: <20 µM
Cc1ccnc2c1NC(=O)c1cccnc1N2C1CC1 ; method: cytopathic effect / MTT ; strain: Recombinant clinical isolates ; measure: EC50 ; cells: MT-4 ; value: ≤0.01 µM
NC(=O)c1nn([C@@H]2O[C@H](CO)[C@@H](O)[C@H]2O)cc1Br ; method: syncytia ; strain: IIIB ; measure: EC50 ; cells: C8166 ; value: <12.2 µM
CC(C)(C)OC(=O)[C@@H]1CCCN1C(=O)[C@@H](O)[C@H](Cc1ccccc1)NC(=O)[C@H](CC(N)=O)NC(=O)c1ccc2ccccc2n1 ; method: antigen ; strain: IIIB ; measure: EC50 ; cells: CEM ; value: 0.2 µM
Cc1c(N)c(C(N)=O)nn1[C@@H]1O[C@H](CO)[C@@H](O)[C@H]1O ; method: syncytia ; strain: IIIB ; measure: EC90 ; cells: C8166 ; value: >320 µM
Nc1nc(=O)n([C@@H]2CS[C@@H](CO)O2)cc1Br ; method: RT activity ; strain: LAV ; measure: EC50 ; cells: PBMC ; value: 100 µM
CC(C)(C)OC(=O)[C@@H]1CCCN1C(=O)[C@@H](O)[C@H](Cc1ccccc1)NC(=O)[C@H](CC(N)=O)NC(=O)OCc1ccccc1 ; method: antigen ; strain: IIIB ; measure: EC50 ; cells: CEM ; value: 1.3 µM
O=S1(=O)N=C(Nc2ccc(F)cc2)C=C(Cc2cccc3ccccc23)N1 ; method: MTT ; strain: IIIB ; measure: EC50 ; cells: MT-4 ; value: 32 µM
Cc1ccnc2c1NC(=O)c1cccnc1N2C1CC1 ; measure: EC50 ; value: 0.0372 µM
CCCCN1C(=O)N(Cc2cccc(C(=O)Nc3ncc[nH]3)c2)[C@H](Cc2ccccc2)[C@H](O)[C@@H](O)[C@H]1Cc1ccccc1 ; strain: RF ; measure: EC50 ; cells: MT-2 ; value: <0.018 µM
CC(=O)N1C(=O)C(=Nc2ccc(S(=O)(=O)Nc3nc(C)cc(C)n3)cc2)c2ccccc21 ; method: cytopathic effect / MTT ; strain: IIIB ; measure: EC50 ; cells: MT-4 ; value: 8 µg/mL
C[C@H](CCC=C(CO)CO)[C@H]1C[C@H](O)[C@@]2(C)C3=CC[C@H]4C(C)(C)C(=O)CC[C@]4(C)C3=CC[C@]12C ; method: cytopathic effect / microscopy ; measure: EC50 ; cells: MT-4 ; value: ~7.8 µM
O=C1CN=C(c2ccc[nH]2)c2cc(Cl)ccc2N1 ; method: p24 ; strain: NL4-3 X4 ; measure: EC50 ; cells: U87.CD4-CXCR4+ + U87.CD4 ; value: 0.5 µg/mL
Cc1cn([C@H]2C[C@H](N=[N+]=[N-])[C@@H](CO)O2)c(=O)[nH]c1=O ; method: cytopathic effect / MTT ; strain: IIIB ; measure: EC50 ; cells: MT-4 ; value: 0.0012 µg/mL
O=S1(=O)N=C(Nc2ccc(Br)cc2)C=C(Cc2cccc3ccccc23)N1 ; method: MTT ; strain: IIIB ; measure: EC50 ; cells: MT-4 ; value: 23 µM
CCc1cc(CCc2nc3ccccc3o2)c(=O)[nH]c1C ; method: p24 ; strain: IIIB ; measure: EC95 ; cells: MT-4 ; value: 0.05 µM
Cc1c(Cc2c(F)cccc2F)nc(SCc2ccc3c(c2)OCO3)[nH]c1=O ; method: MTT ; strain: NL4-3 ; measure: EC50 ; cells: MT-4 ; value: 0.15 µM
CC[C@H](C)[C@H](NC(=O)[C@H](C)NC(=O)CNC(=O)[C@@H](NC(=O)[C@H](C)N)C(C)C)C(=O)NCC(=O)O ; method: syncytia ; strain: WMJ ; measure: EC50 ; cells: HeLa + HELA CD4+ ; value: ~2500 µM
CC(C)=CCN1Cc2cc(Cl)cc3[nH]c(=S)n(c23)C[C@@H]1C ; method: cytopathic effect / MTT ; strain: ED ; measure: EC50 ; cells: CEM + CEM-SS ; value: 0.009 µM
CCc1cc(SCc2nc3c(Cl)ccc(Cl)c3o2)c(=O)[nH]c1C ; method: p24 ; strain: IIIB ; measure: EC50 ; cells: MT-4 ; value: <0.0375 µM
Cc1cn([C@H]2C[C@H](N=[N+]=[N-])[C@@H](CO)O2)c(=O)[nH]c1=O ; method: MTT ; strain: NL4-3 ; measure: EC50 ; cells: MT-4 ; value: 0.003 µM
Cc1cn([C@H]2C[C@H](N=[N+]=[N-])[C@@H](CO)O2)c(=O)[nH]c1=O ; method: cytopathic effect / XTT ; measure: EC50 ; cells: CEM ; value: 0.009 µM
COC(=O)[C@@H](C)NC(=O)c1c(C)cc2c(c1O)-c1c(cc3c(c1O)C(=O)c1cc(OC)cc(O)c1C3=O)[C@H](O)[C@H]2O[C@@H]1O[C@H](CO)[C@H](N)[C@H](O)[C@H]1O ; method: antigen ; strain: IIIB ; measure: EC50 ; cells: MT-4 ; value: <30 µg/mL
Cc1c(Cc2c(Cl)cccc2Cl)nc(SCC(=O)c2ccc(C#N)cc2)[nH]c1=O ; method: MTT ; strain: NL4-3 ; measure: EC50 ; cells: MT-4 ; value: 1.08 µM
CCc1cc(CCc2nc3cccc(Cl)c3o2)c(=S)[nH]c1C ; method: p24 ; strain: IIIB ; measure: EC50 ; cells: MT-4 ; value: <0.2 µM
CC(C(=O)O)C(C)C(=O)N[C@@H](Cc1ccccc1)[C@H](O)C(=O)N1CSC(C)(C)[C@H]1C(=O)NC(C)(C)C ; measure: EC50 ; cells: MT-4 ; value: 225 µM
COC(=O)c1ccc(CSc2nc(Cc3c(F)cccc3F)c(C)c(=O)[nH]2)cc1 ; method: MTT ; strain: NL4-3 ; measure: EC50 ; cells: MT-4 ; value: 0.142 µM
COC(=O)[C@@H](C)NC(=O)c1c(C)cc2c(c1O)-c1c(cc3c(c1O)C(=O)c1cc(OC)cc(O)c1C3=O)[C@H](O)[C@H]2O[C@@H]1O[C@H](C)[C@H](N)[C@H](O[C@@H]2OC[C@@H](O)[C@H](O)[C@H]2O)[C@H]1O ; method: antigen ; strain: IIIB ; measure: EC50 ; cells: MT-4 ; value: >30 µg/mL
COc1cc(NC2=NS(=O)(=O)NC(Cc3ccccc3)=C2)cc(OC)c1OC ; method: MTT ; strain: IIIB ; measure: EC50 ; cells: MT-4 ; value: >310 µM
Cc1cc(C)nc(NS(=O)(=O)c2ccc(N=C3C(=O)Nc4ccc(Br)cc43)cc2)n1 ; method: cytopathic effect / MTT ; strain: IIIB ; measure: EC50 ; cells: MT-4 ; value: 15.3 µg/mL
COc1cc(O)c2c(c1)C(=O)c1c(cc3c(c1O)-c1c(cc(C)c(C(=O)N[C@H](C)C(=O)O)c1O)[C@H](O[C@@H]1O[C@H](C)[C@H](O)[C@H](O[C@@H]4OC[C@@H](O)[C@H](O)[C@H]4O)[C@H]1O)[C@H]3O)C2=O ; method: syncytia ; strain: IIIB ; measure: EC50 ; cells: MOLT-4 ; value: <10 µg/mL
CC(C)(C)NC(=O)[C@H]1N(C(=O)[C@@H](O)[C@H](Cc2ccccc2)NC(=O)CC(C)(C)C(=O)O)CSC1(C)C ; measure: EC50 ; cells: MT-4 ; value: 52 µM
CCc1cc(CCc2nc3c(Cl)ccc(Cl)c3o2)c(=S)[nH]c1C ; method: p24 ; strain: IIIB ; measure: EC50 ; cells: MT-4 ; value: <0.1 µM
C[C@H](CC[C@H](O)C(C)(O)CO)[C@H]1CC[C@@]2(C)C3=CCC4C(C)(C)[C@@H](O)CC[C@]4(C)C3=CC[C@]12C ; method: cytopathic effect / microscopy ; measure: EC50 ; cells: MT-4 ; value: >1000 µM
O=C(Nc1ncc[nH]1)c1cccc(CN2C(=O)N(Cc3cccc(C(=O)Nc4ncc[nH]4)c3)[C@H](Cc3ccccc3)[C@H](O)[C@@H](O)[C@H]2Cc2ccccc2)c1 ; method: p24 ; strain: RF ; measure: EC50 ; cells: MT-2 ; value: <0.0019 µM
C[C@H](CCC=C(CO)CO)[C@H]1CC[C@@]2(C)C3=CC[C@H]4C(C)(C)C(=O)CC[C@]4(C)C3=CC[C@]12C ; method: cytopathic effect / microscopy ; measure: EC50 ; cells: MT-4 ; value: <7.8 µM
CCc1cc(CCc2nc3ccccc3o2)c(=S)[nH]c1C ; method: p24 ; strain: IIIB ; measure: EC50 ; cells: MT-4 ; value: <0.2 µM
Nc1cccc(CN2C(=O)N(Cc3cccc(N)c3)[C@H](Cc3ccccc3)[C@H](O)[C@@H](O)[C@H]2Cc2ccccc2)c1 ; strain: RF ; measure: EC50 ; cells: MT-2 ; value: <0.12 µM
O=c1[nH]cnc2c1ncn2[C@@H]1CS[C@@H](CO)O1 ; method: RT activity ; strain: LAV ; measure: EC50 ; cells: PBMC ; value: 100 µM
C[C@H](CC(=O)C[C@@H](C)[C@H]1CC(=O)[C@@]2(C)C3=C(C(=O)C[C@]12C)[C@@]1(C)CC[C@H](O)C(C)(C)[C@@H]1C[C@@H]3O)C(=O)O ; method: cytopathic effect / microscopy ; measure: EC50 ; cells: MT-4 ; value: >1000 µM
O=C(Nc1nccs1)c1cccc(CN2C(=O)N(Cc3ccccc3)[C@H](Cc3ccccc3)[C@H](O)[C@@H](O)[C@H]2Cc2ccccc2)c1 ; strain: RF ; measure: EC50 ; cells: MT-2 ; value: <0.074 µM

7 of the rows above, restated:

structure	method	strain	measure	cells	mutations	value
CC(C)=CCN1Cc2cc(Cl)cc3[nH]c(=S)n(c23)C[C@@H]1C	cytopathic effect / MTT	ED	EC50	CEM + CEM-SS		0.009 µM
Cc1cn([C@H]2C[C@H](N=[N+]=[N-])[C@@H](CO)O2)c(=O)[nH]c1=O	cytopathic effect / MTT	IIIB	EC50	MT-4		0.0012 µg/mL
Cc1cn([C@H]2C[C@H](N=[N+]=[N-])[C@@H](COC(=O)CNNC(=O)c3ccncc3)O2)c(=O)[nH]c1=O	cytopathic effect / XTT		EC50	CEM		<0.064 µM
Cc1cn([C@H]2C[C@H](N=[N+]=[N-])[C@@H](CO)O2)c(=O)[nH]c1=O	luciferase	NL4-3	EC50	TZM-bl		0.004 µg/mL
O=C(Nc1nccs1)c1cccc(CN2C(=O)N(Cc3ccccc3)[C@H](Cc3ccccc3)[C@H](O)[C@@H](O)[C@H]2Cc2ccccc2)c1		RF	EC50	MT-2		<0.074 µM
CC(C)[C@H](NC(=O)[C@H](Cc1ccccc1)C[C@H](O)[C@H](Cc1ccccc1)NC(=O)OC(C)(C)C)C(=O)N[C@@H](Cc1ccccc1)C(=O)N1CCOCC1	RT activity	LAV	EC50	PBMC		0.033 µM
O=C(Nc1ncc[nH]1)c1cccc(CN2C(=O)N(Cc3cccc(C(=O)Nc4ncc[nH]4)c3)[C@H](Cc3ccccc3)[C@H](O)[C@@H](O)[C@H]2Cc2ccccc2)c1	p24	RF	EC50	MT-2		<0.0019 µM